The structures appear in SMILES notation.

This assay deals with T1, wild type C-South African (C-SA) HIV-1 protease (Human immunodeficiency virus type 1 group M subtype B, UniProt P12497, H557K/I503V/I581L/L507I/L577M/M524I/R529K/T500S).
T1 construct: Over-expression, extraction and purification of the C-SA protease and in vitro HIV-1 protease activity were reported in our earlier publications; made in house
Kind of assay: in vitro HIV-1 protease inhibition (C-SA PR). It counts as biochemical, HIV-1 subtype C. An excerpt:
Over-expression, extraction and purification of the C-SA protease and in vitro HIV-1 protease activity were reported in our earlier publications. Genetic diversity among HIV-1 subtypes ranges between 25 and 35% at the nucleotide level and variation within subtypes vary from 15 to 20% [48, 49]. Thus, both the high mutation rate within the HIV PR and the genetic variation of HIV is an ongoing challenge toward finding a potent protease inhibitor (PI) with reasonable inhibition of various HIV subtypes.
The HIV-1 subtype C PR that predominates in South Africa (C-SA PR) is defined as the consensus subtype C PR [51]. This C-SA PR contains eight polymorphic sites (T12S, I15V, L19I, M36I, R41K, H69K, L89M, and I93L) in relation to the wild-type subtype B HIV-1 PR [52]. Multiple sequence alignment of the C-SA PR, subtype B PR, subtype B-MDR PR, and subtype C-2R8N PR confirmed that subtype C of South African HIV-1 protease is structurally very close to the rest of the HIV-1 proteases.
The procedures followed were the same as reported before ^12,13.

The IC50 is the concentration needed to halve the response being measured. Low readings indicate greater potency, high ones weaker potency. Consider `Cc1cccc(C)c1OCC(=O)N[C@@H](Cc1ccccc1)[C@@H](O)C[C@H](Cc1ccccc1)NC(=O)[C@H](C(C)C)N1CCCNC1=O` [Lopinavir, reference compound], for which 25 ± 1.4 nM corresponded to half-maximal inhibition (IC50).

Values taken from publication PMC4387594, “Pentacycloundecane lactam vs lactone norstatine type protease HIV inhibitors: binding energy calculations and DFT study” (Journal of Biomedical Science, 2015).
